PubChem BioAssay AID1259414, Drosophila RNAi Screening Center, 2018

- Aim: 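Host factors increasing or decreasing Wolbachia levels in cultured fly cells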 (primary screen)
- System: Drosophila JW18 cells infected with Wolbachia
- Reagents: long dsRNA against Drosophila genes, 0.25 µg dsRNA per well of a 384-well plate
- Duration: 5 days
- Challenge: cells persistently infected with Wolbachia before knock-down; no added drug
- Detection: 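Automated imaging of bacterial rRNA staining divided by host cell count, reported as plate-normalised robust z-score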
- Reading the numbers: Wolbachia per cell robust z: higher = more Wolbachia per host cell than the plate typical
- Call rule: 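Hit when robust z is 1.5 or more, or -1.5 or less, in at least two of three replicates; excludes dsRNAs with several or no targets, genes not expressed in JW18 and well A1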
The deposit covers about 24,000 reagents; this is an unselected part of those that have a named target and a result. In the full data, about 1,210 (5%) are marked active. 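Inactive calls also include excluded dsRNAs with several or no targets, genes unexpressed in JW18, and well A1, regardless of score.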 A number with no mark means an inactive call. The numbers tell different reagents against one gene apart. Names joined by + are all predicted targets of the reagent. No sequences are given here.

With knock-down of CG17145 the results were Wolbachia per cell robust z, rep 1 = 0.485; Wolbachia per cell robust z, rep 2 = 0.478; Wolbachia per cell robust z, rep 3 = -0.418.
For CG32450, the values are Wolbachia per cell robust z, rep 1 = -0.589; Wolbachia per cell robust z, rep 2 = -0.512; Wolbachia per cell robust z, rep 3 = -1.15.
Against CG5938 #1, the values are Wolbachia per cell robust z, rep 1 = 0.172; Wolbachia per cell robust z, rep 2 = 1.03; Wolbachia per cell robust z, rep 3 = -0.254.
Knock-down of CG5938 #2 resulted in: Wolbachia per cell robust z, rep 1 = -1.05; Wolbachia per cell robust z, rep 2 = 0.614; Wolbachia per cell robust z, rep 3 = -1.08.
With knock-down of Atg18b (Autophagy-related 18b) #1, the record shows Wolbachia per cell robust z, rep 1 = -0.246; Wolbachia per cell robust z, rep 2 = 0.65; Wolbachia per cell robust z, rep 3 = 0.243.
Depletion of Atg18b (Autophagy-related 18b) #2 resulted in: Wolbachia per cell robust z, rep 1 = 1.58 (active); Wolbachia per cell robust z, rep 2 = 1.69; Wolbachia per cell robust z, rep 3 = -0.651.
With knock-down of Dhps (Deoxyhypusine synthase), the record shows Wolbachia per cell robust z, rep 1 = 0.49; Wolbachia per cell robust z, rep 2 = 0.326; Wolbachia per cell robust z, rep 3 = 1.82.
For eIF4E5 (eukaryotic translation initiation factor 4E5) #1, the values are Wolbachia per cell robust z, rep 1 = 0.659; Wolbachia per cell robust z, rep 2 = 0.381; Wolbachia per cell robust z, rep 3 = -1.56.
Depletion of eIF4E5 (eukaryotic translation initiation factor 4E5) #2 resulted in: Wolbachia per cell robust z, rep 1 = -1.69; Wolbachia per cell robust z, rep 2 = -0.462; Wolbachia per cell robust z, rep 3 = -1.66.
With knock-down of CG11454 #1, the screen gave Wolbachia per cell robust z, rep 1 = 1.38; Wolbachia per cell robust z, rep 2 = 1.23; Wolbachia per cell robust z, rep 3 = 1.68.
Against CG11454 #2 the deposit lists Wolbachia per cell robust z, rep 1 = 1.1; Wolbachia per cell robust z, rep 2 = 0.405; Wolbachia per cell robust z, rep 3 = 0.425.
CG31465 #1 gave Wolbachia per cell robust z, rep 1 = -0.0487; Wolbachia per cell robust z, rep 2 = -0.111; Wolbachia per cell robust z, rep 3 = -5.29.
Knock-down of CG31465 #2 resulted in: Wolbachia per cell robust z, rep 1 = -0.0686; Wolbachia per cell robust z, rep 2 = -0.352; Wolbachia per cell robust z, rep 3 = -0.0515.
Rpn10 (Regulatory particle non-ATPase 10) gave Wolbachia per cell robust z, rep 1 = 0.343; Wolbachia per cell robust z, rep 2 = 0.768; Wolbachia per cell robust z, rep 3 = 1.2.

A few values from above.
Under “Wolbachia per cell robust z, rep 3”, eIF4E5 (eukaryotic translation initiation factor 4E5) #2 shows -1.66
CG5938 #1, Wolbachia per cell robust z, rep 3 → -0.254

Further records:
Against Cyp40 (Cyclophilin 40) #1, the entry reads Wolbachia per cell robust z, rep 1 = 0.182; Wolbachia per cell robust z, rep 2 = 0.281; Wolbachia per cell robust z, rep 3 = -0.958.
After knock-down of Cyp40 (Cyclophilin 40) #2 the results were Wolbachia per cell robust z, rep 1 = 1.59 (active); Wolbachia per cell robust z, rep 2 = 1.58; Wolbachia per cell robust z, rep 3 = 0.448.
For CG17839 #1 the deposit lists Wolbachia per cell robust z, rep 1 = 1.54; Wolbachia per cell robust z, rep 2 = -0.497; Wolbachia per cell robust z, rep 3 = -0.5.
CG17839 #2 showed Wolbachia per cell robust z, rep 1 = -0.148; Wolbachia per cell robust z, rep 2 = -0.981; Wolbachia per cell robust z, rep 3 = -0.653.
After knock-down of CG11286, the record shows Wolbachia per cell robust z, rep 1 = -1.51; Wolbachia per cell robust z, rep 2 = 0.703; Wolbachia per cell robust z, rep 3 = 0.463.
After knock-down of Sema5c (Semaphorin 5c) #1 the results were Wolbachia per cell robust z, rep 1 = 1.43; Wolbachia per cell robust z, rep 2 = 0.212; Wolbachia per cell robust z, rep 3 = 1.03.
Sema5c (Semaphorin 5c) #2 gave Wolbachia per cell robust z, rep 1 = -1.34; Wolbachia per cell robust z, rep 2 = -1.78; Wolbachia per cell robust z, rep 3 = -0.878.
CR41597 + mRpS5 + CR42723 + 1 more scored Wolbachia per cell robust z, rep 1 = -1.32; Wolbachia per cell robust z, rep 2 = -1.43; Wolbachia per cell robust z, rep 3 = -6.33.
Silencing of crok (crooked) #1 came out at: Wolbachia per cell robust z, rep 1 = 0.139; Wolbachia per cell robust z, rep 2 = 1.13; Wolbachia per cell robust z, rep 3 = -2.06.
For crok (crooked) #2, the entry reads Wolbachia per cell robust z, rep 1 = 0.408; Wolbachia per cell robust z, rep 2 = 0.606; Wolbachia per cell robust z, rep 3 = 0.197.
After knock-down of crok (crooked) #3, the record shows Wolbachia per cell robust z, rep 1 = -0.913; Wolbachia per cell robust z, rep 2 = -1.48; Wolbachia per cell robust z, rep 3 = 0.611.
Depletion of Pdss2 (Decaprenyl diphosphate synthase subunit 2) gave: Wolbachia per cell robust z, rep 1 = 0.335; Wolbachia per cell robust z, rep 2 = -6.26; Wolbachia per cell robust z, rep 3 = -0.278.
Against az2, the entry reads Wolbachia per cell robust z, rep 1 = 0.609; Wolbachia per cell robust z, rep 2 = -0.165; Wolbachia per cell robust z, rep 3 = -1.06.
After knock-down of Tmep (Transmembrane endosomal protein) #1 the results were Wolbachia per cell robust z, rep 1 = 1.05; Wolbachia per cell robust z, rep 2 = 0.858; Wolbachia per cell robust z, rep 3 = 0.602.
After knock-down of Tmep (Transmembrane endosomal protein) #2, the record shows Wolbachia per cell robust z, rep 1 = 0.198; Wolbachia per cell robust z, rep 2 = -0.353; Wolbachia per cell robust z, rep 3 = -0.402.
Silencing of Cby (Chibby) came out at: Wolbachia per cell robust z, rep 1 = -0.184; Wolbachia per cell robust z, rep 2 = 0.276; Wolbachia per cell robust z, rep 3 = -0.318.
